Columns and labels:
[1] = system: RMAS-HHD targets loaded with peptide; test: Immunogenicity: CTL generation in HHD transgenic mice, 51Cr lysis of peptide-loaded targets; type: in vivo; settings: 100 μg peptide s.c., responder: specific cytotoxicity >15% above unloaded targets
[2] = target: HLA A2.1 molecule (Homo sapiens, UniProt P04439, D140Y/D185E/D98H/E176V/E277Q/G131W/G231S/I119V/I121R/I166T/I218V/L300P/L318F/N151K/N90K/P208A/P217A/Q86G/Q94H/R138H/R169H/T345S); settings: native peptides; relative affinity vs reference peptide HIVpol 589; lower RA = stronger binding

## AAGIGILTV [Mart-1 27]
[1]
  Responders/total mice: 4/5

## ALIHHNTHL [HER-2/neu 466]
[2]
  RA: 4.8

## KIFGSLAFL [HER-2/neu 369]
[1]
  Responders/total mice: 12/13
